Test system: C[C@H](O)[C@H](N)C(=O)O
Test: purified protein
Conditions: 50 mM NaPi pH 8, 25 °C, 50 μM PLP

Substance | Km [mM] | kcat [s⁻¹] | kcat/Km [M⁻¹ s⁻¹]
LTAaj (L-threonine aldolase from Aeromonas jandaei; L-allo-threonine aldolase) (Aeromonas jandaei; H85Y) | 14.8 | 0.01 | 0.7
LTAaj (L-threonine aldolase from Aeromonas jandaei; L-allo-threonine aldolase) (Aeromonas jandaei; R171Q) | 69 | 0.47 | 6.8
LTAaj (L-threonine aldolase from Aeromonas jandaei; L-allo-threonine aldolase) (Aeromonas jandaei; E138A) | 2.3 | 3.9 | 1700
LTAaj (L-threonine aldolase from Aeromonas jandaei; L-allo-threonine aldolase) (Aeromonas jandaei; R313H) | 28 | 2.3 | 80
LTAaj (L-threonine aldolase from Aeromonas jandaei; L-allo-threonine aldolase) (Aeromonas jandaei; C196T) | 0.5 | 13.3 | 26000
LTAaj (L-threonine aldolase from Aeromonas jandaei; L-allo-threonine aldolase) (Aeromonas jandaei; R171F) | 18 | 0.23 | 10
LTAaj (L-threonine aldolase from Aeromonas jandaei; L-allo-threonine aldolase) (Aeromonas jandaei; S198H) | 5.7 | 5.1 | 900
LTAaj (L-threonine aldolase from Aeromonas jandaei; L-allo-threonine aldolase) (Aeromonas jandaei; G200S) | 0.2 | 13.6 | 61000
LTAaj (L-threonine aldolase from Aeromonas jandaei; L-allo-threonine aldolase) (Aeromonas jandaei; R231A) | 7.5 | 0.7 | 90
LTAaj (L-threonine aldolase from Aeromonas jandaei; L-allo-threonine aldolase) (Aeromonas jandaei; H85F) | 11.5 | 0.05 | 4.5
